B1: BD55-6112 (protein)
chain 1: EVQLVESGGGLVKPGGSLRLSCAASGFIFSDYDMNWVRQAPGKGLEWLSSISGSTYFIHYTDSVRGRFTISRDNAKNSVYLQMSSLRVEDTAVYHCVRGGGPPYSDTHGFVDYWGQGTLVTVSS
chain 2: QSVLTQPPSASGTPGQRVTISCSGSNSNIGSNIVSWFQHLPGTAPKLLIYDNNRRPSGVPDRISGSKSGTSASLAISGLQSEDEADYYCATWDDSLNGGVFGGGTKLTVL
B2: BD55-6195 (protein)
chain 1: QITLRESGPTLVKPTQTLTLTCTFSGFSLSTTEMGVGWIRQPPGKALEWLALIYWHDDKRFNPSLKSRLTITKDTSKNQVVLTMTNMDPVDTATYYCARWYFDISTGGVYYMDIWGNGITVTVSS
chain 2: DIVMTQTPLSSPVTLGQPASISCRSSQSLVHSDGNTFLSWLQQRPGQPPRLLIYKISNRVPGVPDRFSGSGAGTDFTLKISRVEAEDVGIYYCMQATQFPHEMYTFGQGTRLEIK
B3: BD55-6192 (protein)
chain 1: QVQLLESGPGLVKPSETLSLTCSVSGGYISQYYWNWIRQTPGKGLEWIGHIFYSGSTNYIPSLESRVTISVDTSKNQFSLKLKSVTAADTAVYYCAREVQWLGPGAFDIWGQGKMVTVSS
chain 2: EMVLTQSPGTLSLSPGERATLSCRASQSVNSNYLAWYQQKPGQAPRLLISGASDRATGIPDRFSGSGSGTDFTLTISRVEPEDFAVYYCQQYGSSPLVTFGQGTKVEVK
B4: BD55-6185 (protein)
chain 1: QITLKESGPTLVKPTQTLTLTCTFSGFSLNTRGVSVGWIRQPPGKALEWLALIYWDDDRRYSPSLKSRLTIIKDTSTNQVVLTMTNMDPVDTATYYCARAYDFYDSIGYYSGYYFDYWGQGTLVTVSS
chain 2: QSVLTQPPSVSGAPGQRVTISCTGSSSNNGAVFDVHWYQQLPGSAPKLVIYGNNNRPSGVPDRFSGSKSGTSASLAITGLQAEDEADYYCHSYDSSLSGPLFGGGTKLTVL
B5: BD55-6105 (protein)
chain 1: QVQLVQSGAEVKKPGSSVKVSCKASGGTFSSNGVNWVRQAPGQGLEWMGRIIPIPGIGDFAQKFQGRVTITADKSTSTVYMELSSLRSEDTAVYYCARAPPRGYSGYDLLGNDAFDIWGQGTMVTVSS
chain 2: QSVLTQPPSVSGAPGQRVTISCTGSSSNIGAGYDVHWYQQLPGTAPKLLIYTNSNRPSGVPDRFSGSKSGTSASLAIAGLQSEDEADYYCQSYDSSLSGSYVFGTGTKVTVL
B6: BD55-6190 (protein)
chain 1: EVQLVESGGGLVQPGGSLRLSCVTSGFTFSNYAMNWVRQAPGKGLEYVSVIGSNGGRTYYANSMKDRFTISRDNSKNTLYLQMGSLKAEDMAVYYCARGPEEVTGYDFWTGYSDYWGQGTLVTVSS
chain 2: QSVLTQPPSVSGAPGQRVTISCTGSSSNIGAGYDVHWYQQFPGTAPKLLILGNTNRPSGVPDRFSGSKSDTSASLAITGLQAEDEAAYYCQSFDSSLSGFWVFGGGTKLTVL

Human monoclonal antibodies against the spike receptor-binding domain (heavy:light variable regions). IC50 against pseudoviruses bearing the spike of naturally observed variants; lower = stronger; >10 µg/ml means not reached at the top dose. No active / inactive call. The stated detection limit is 0.0005 µg/ml; values near or below 0.001 µg/ml lie at the floor of the assay.

The target in the first test is SARS-CoV-2 Omicron BA.1 spike pseudovirus. The test is described as follows: pseudovirus neutralization IC50; higher = weaker neutralization. Here is the method:
(§1)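 Single-round VSV luciferase pseudovirus mixed with antibody dilutions for 1 h and put on Huh-7 cells for about a day; IC50 from the dose curve.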
Take B1: the “pseudovirus neutralization IC50” value turned out to be 0.601 mg/L.

With B2, the “pseudovirus neutralization IC50” value was 4.09 mg/L.

Take B3: the “pseudovirus neutralization IC50” value was > 10 mg/L.

For B4, the “pseudovirus neutralization IC50” value was > 10 mg/L.

Take B5: the “pseudovirus neutralization IC50” value was > 10 mg/L.

Regarding B6, the “pseudovirus neutralization IC50” value stood at 1.28 mg/L.

The target in the next test is SARS-CoV-2 Omicron BA.2 spike pseudovirus. The description is as above. How it is done:
as §1
For the molecule B1, the “pseudovirus neutralization IC50” value was > 10 mg/L.

For the molecule B2, the “pseudovirus neutralization IC50” value was > 10 mg/L.

For B3, the “pseudovirus neutralization IC50” value was > 10 mg/L.

On to B4, for which the “pseudovirus neutralization IC50” value was > 10 mg/L.

For the molecule B5, the “pseudovirus neutralization IC50” value is > 10 mg/L.

As for B6, the “pseudovirus neutralization IC50” value is > 10 mg/L.

A further test concerns the target SARS-CoV-2 Omicron BA.2.75 spike pseudovirus. Described as above. How it is done: as §1
For the molecule B1, the “pseudovirus neutralization IC50” value is > 10 mg/L.

In the case of B2, the “pseudovirus neutralization IC50” value was > 10 mg/L.

Consider B3, for which the “pseudovirus neutralization IC50” value is > 10 mg/L.

Take B4: the “pseudovirus neutralization IC50” value was > 10 mg/L.

For the molecule B5, the “pseudovirus neutralization IC50” value is > 10 mg/L.

B6: the “pseudovirus neutralization IC50” value was > 10 mg/L.

In a further test the target is SARS-CoV-2 Omicron BA.5 spike pseudovirus. The description is as above. Here is the method:
as §1
Consider B1, for which the “pseudovirus neutralization IC50” value is > 10 mg/L.

B2: the “pseudovirus neutralization IC50” value is > 10 mg/L.

Consider B3, for which the “pseudovirus neutralization IC50” value was > 10 mg/L.

Turning to B4, the “pseudovirus neutralization IC50” value is > 10 mg/L.

As to B5, the “pseudovirus neutralization IC50” value was > 10 mg/L.

Turning to B6, the “pseudovirus neutralization IC50” value was > 10 mg/L.

In a further test the target is SARS-CoV-2 Omicron BQ.1.1 spike pseudovirus. The description is as above. Here is the method: as §1
Take B1: the “pseudovirus neutralization IC50” value is > 10 mg/L.

As for B2, the “pseudovirus neutralization IC50” value was > 10 mg/L.

B3: the “pseudovirus neutralization IC50” value is > 10 mg/L.

In the case of B4, the “pseudovirus neutralization IC50” value is > 10 mg/L.

For the molecule B5, the “pseudovirus neutralization IC50” value was > 10 mg/L.

Turning to B6, the “pseudovirus neutralization IC50” value is > 10 mg/L.

Another test addresses SARS-CoV-2 Omicron XBB spike pseudovirus. Described as above. How it is done: as §1
For B1, the “pseudovirus neutralization IC50” value is > 10 mg/L.

Take B2: the “pseudovirus neutralization IC50” value is > 10 mg/L.

Take B3: the “pseudovirus neutralization IC50” value is > 10 mg/L.

As to B4, the “pseudovirus neutralization IC50” value was > 10 mg/L.

Turning to B5, the “pseudovirus neutralization IC50” value is > 10 mg/L.

As for B6, the “pseudovirus neutralization IC50” value was > 10 mg/L.

The next test addresses SARS-CoV-2 early D614G spike pseudovirus. Described as above. Here is the method: as §1
As to B1, the “pseudovirus neutralization IC50” value worked out at 1.86 mg/L.

B2: the “pseudovirus neutralization IC50” value was found to be 0.0147 mg/L.

As to B3, the “pseudovirus neutralization IC50” value was > 10 mg/L.

For the molecule B4, the “pseudovirus neutralization IC50” value was > 10 mg/L.

Consider B5, for which the “pseudovirus neutralization IC50” value is 0.116 mg/L.

In the case of B6, the “pseudovirus neutralization IC50” value is 0.0583 mg/L.

(Values after the supplement of paper PMC9931576.)
